Results of unrelated studies side by side (data: NIAID ChemDB).

Common to all: tests in culture; organism: Candida albicans

Two numbers with a dash give a range or band. Blank or dashed fields: not listed here. Lines come from different laboratories, so protocols vary. A number after MIC or MFC names an inhibition level or a share of isolates.

| smiles | method | measure | conditions | strain | result |
|---|---|---|---|---|---|
| CC(C)C(CCC(C)C1CCC2C3CC=C4C[C@@H](O)CCC4(C)C3CCC12C)NS(=O)(=O)O |  | MIC90 |  | A11651 | 6.25 µg/mL |
| Cc1ccc(/C=C2/SC(=O)N(CC(=O)Nc3nc4ccc(SC#N)cc4s3)C2=O)cc1 | broth dilution / visual reading | MIC |  | MTCC 227 | 250 µg/mL |
| C=C1C[C@@H]2C[C@@H]3CCO[C@@H](O3)c3coc(n3)/C=C/C[C@H]3O[C@@H](/C(C)=C/c4coc(C[C@]5(OC)C[C@H](OC)C[C@H]([C@H](O)/C=C(C)/C=C/[C@@H](C/C=C/Cl)OC)O5)n4)[C@H](C)[C@@H](OC(=O)/C=C\C[C@@H](C1)O2)[C@H]3C | broth dilution | MIC |  | 96-489 | >64 µg/mL |
| CC(C)N1CCN(c2nc3ccc4oc(=O)ccc4c3s2)CC1 |  | MIC100 |  | MTCC 183 | 62.5 µg/mL |
| O=C1/C(=C/c2ccccc2)CCc2ccccc21 |  | MIC |  |  | 50 µg/mL |
| Cc1nc(Nc2ccc(C3=NC(=O)NC(c4ccc(Br)cc4)C3)cc2)c2c3c(sc2n1)CCCC3 |  | MIC |  |  | 170 µg/mL |
| CCCCCOc1ccc(-c2ccc(-c3ccc(C(=O)N[C@H]4C[C@@H](O)[C@@H](OCCN(C)CC)NC(=O)[C@@H]5[C@@H](O)[C@@H](C)CN5C(=O)[C@H]([C@H](C)O)NC(=O)[C@H]([C@H](O)[C@@H](O)c5ccc(O)cc5)NC(=O)[C@@H]5C[C@@H](O)CN5C(=O)[C@H]([C@H](C)O)NC4=O)cc3)cc2)cc1 |  | MIC |  |  | 0.156 µg/mL |
| Cc1ccc(/C=C2\CCc3ccccc3C2=O)cc1 |  | MIC |  |  | 50 µg/mL |
| C=CCc1ccc(O)c(OC)c1 | turbidity | MIC90 |  | 2920 | 500 µg/mL |
| Cc1nc2c(s1)C(=O)C(Sc1ccccc1)=C(O)C2=O |  | MIC |  | ATCC20231 | >100 µg/mL |
| C=C(C)C1CC2=C(O1)C(=O)c1cccc(OC)c1C2=O |  | MIC |  |  | 80 µg/mL |
| O=c1ccc2c(ccc3nc(N4CCN(C(c5ccccc5)c5ccc(Cl)cc5)CC4)sc32)o1 |  | MIC100 |  | MTCC 183 | 62.5 µg/mL |
| C=C(C)C1OC2=C(C(=O)c3ccccc3C2=O)C1O |  | MIC |  |  | 40 µg/mL |
| O=C(/C=C/c1cc(O)ccc1O)c1ccccc1 |  | MIC |  | SDAU1 | 100 µg/mL |
| NC(=NCc1ccccc1)NCCCCCCCN1CCCCCCCCN=C(N)NC1=O |  | MIC50 |  | 53T | 2.5 µM |
| Cc1ccc(C(C)C)cc1 |  | MIC |  | ATCC 10231 | 5–10 µg/mL |
| O=C1/C(=C/c2ccc3ccccc3c2)CSc2ccccc21 |  | MIC |  |  | 25 µg/mL |
| C=C1C[C@@H]2C[C@@H]3CCO[C@@H](O3)c3cccc(c3)/C=C/C[C@H]3O[C@@H](/C(C)=C/I)[C@H](C)[C@@H](OC(=O)/C=C\C[C@@H](C1)O2)[C@H]3C | broth dilution | MIC |  | 96-489 | >64 µg/mL |
| CC(C)C(N)CCC(C)C1CC[C@@]2(C)C3=C(CCC12C)C1(C)CC[C@H](O)C(C)(C)C1CC3 |  | MIC90 |  | A.10231 | 100 µg/mL |
| C[C@@H](SC1COC(/C=C/C=C/c2ccc(C#N)cc2F)OC1)[C@](O)(Cn1cncn1)c1ccc(F)cc1F |  | MIC |  | CAL-0097 | 4 µg/mL |
| COc1cc(C=Nc2ccc(N3CCOCC3)cc2)cc(OC)c1OC |  | MIC |  | ATCC 2091 | 23 µg/mL |
| Cc1ccc(SC2=C(O)C(=O)c3nc(C)sc3C2=O)cc1 |  | MIC |  | ATCC20231 | >100 µg/mL |
| CCC(C)CC(C)CCCCCCCCC(=O)N[C@H]1C[C@@H](O)[C@H](NCCN)NC(=O)[C@@H]2[C@@H](O)CCN2C(=O)[C@H]([C@H](O)CCN)NC(=O)[C@H]([C@H](O)[C@@H](O)c2ccc(O)cc2)NC(=O)[C@@H]2C[C@@H](O)CN2C(=O)[C@H]([C@@H](C)O)NC1=O |  | MIC |  | NR3 | 4 µg/mL |
| Cc1cc(COc2ccc(Oc3ccc(Cl)cc3)cc2)n(O)c(=O)c1 |  | MIC |  | TIMM2640 | 8 µg/mL |
| Cn1c(=O)ccc2c3sc(N4CCN(c5ccccc5)CC4)nc3ccc21 |  | MIC100 |  | MTCC 183 | 500 µg/mL |
| CC1=C(Sc2ccc(C)cc2)C(=O)c2sc(C)nc2C1=O |  | MIC |  | ATCC20231 | 50 µg/mL |
| C[C@@H]1CCC(=O)[C@H](C)[C@@]1(C)CCc1ccc2c(c1)C(=O)C=CC2=O |  | MIC |  |  | 3 µg/mL |
| C=C(C)C1CC2=C(O1)C(=O)c1ccccc1C2=O |  | MIC |  |  | 20 µg/mL |
| C=C1C[C@@H]2C[C@@H]3CCO[C@@H](O3)c3coc(n3)/C=C/C[C@H]3O[C@@H](/C(C)=C/I)[C@H](C)[C@@H](OC(=O)/C=C/C[C@@H](C1)O2)[C@H]3C | broth dilution | MIC |  | 96-489 | >64 µg/mL |
| Oc1ccc2c(c1)CCc1ccc(O)c(c1)Oc1ccc(cc1)CCc1cccc(O)c1O2 | broth dilution | MIC80 |  | CA2 | 32 µg/mL |
| OC(CN1CCN(c2ccc(OCc3ccncc3)cc2)CC1)(Cn1cncn1)c1ccc(F)cc1F |  | MIC80 |  | FH5 | 0.25 µg/mL |
| O=C1NC(=O)/C(=C\c2cccc(Oc3ccccc3)c2)S1 | broth dilution / visual reading | MIC |  | MTCC 227 | 250 µg/mL |
| CC(C)=CCN=C(N)NCCCCCCCN1CCCCCCCCN=C(N)NC1=O |  | MIC50 |  | 15T | 20 µM |
| CCCCCCCCCC/C=C\C1=N[C@H]1C(=O)OC |  | MIC |  | ATCC 14503 | 5–6 µg/mL |
| O=C1/C(=C/c2ccc3ccccc3c2)CSc2ccc(Cl)cc21 |  | MIC |  |  | 50 µg/mL |
| Cn1c(=O)ccc2c3sc(N4CCN(c5ccccc5F)CC4)nc3ccc21 |  | MIC100 |  | MTCC 183 | 50 µg/mL |
| C/C=C/[C@@H]1OC(=O)C=C[C@@H]1O |  | MIC |  |  | 400 µg/mL |
| O=c1ccc2c(ccc3nc(N4CCN(c5ccc(F)cc5)CC4)sc32)o1 |  | MIC100 |  | MTCC 183 | 100 µg/mL |
| Cc1ccc(O)c(C(=O)/C=C/c2ccc(O)cc2O)c1 |  | MIC |  | SDAU1 | 75 µg/mL |
| N#CSc1ccc2nc(NC(=O)CCl)sc2c1 | broth dilution / visual reading | MIC |  | MTCC 227 | 500 µg/mL |
| CC1=C(Nc2ccc(Cl)cc2)C(=O)c2sc(C)nc2C1=O |  | MIC |  | ATCC20231 | 50 µg/mL |
| Clc1ccc(C(Cn2ccnc2)OCc2csc3c(Cl)cccc23)c(Cl)c1 | absorbance | MIC90 | 48 h | 63 isolates | 2 µg/mL |
| O=C1/C(=C/c2ccc(Cl)cc2)CSc2ccccc21 |  | MIC |  |  | 50 µg/mL |
| CC(C)C(CCC(C)C1CC[C@@]2(C)C3=C(CCC12C)C1(C)CC[C@H](O)C(C)(C)C1CC3)NCc1ccccc1 |  | MIC90 |  | A.10231 | 100 µg/mL |
| CN[C@@H]1[C@H](O[C@@H]2O[C@H](CO)[C@@H](O)[C@H](S(=O)(=O)O)[C@H]2O)[C@@H](O)[C@H](O[C@H]2c3cc(C)c(C(=O)N[C@H](C)C(=O)O)c(O)c3-c3c(cc4c(c3O)C(=O)c3cc(OC)cc(O)c3C4=O)[C@@H]2O)O[C@@H]1C |  | MIC |  | ATCC 32354 | 6.3 µg/mL |
| O=C1/C(=C/c2ccccc2O)COc2ccccc21 |  | MIC |  |  | 12.5 µg/mL |
| c1ccc(-c2ccc(C(c3ccccc3)n3ccnc3)cc2)cc1 |  | MIC |  |  | 3.6 µg/mL |
| C=CCSS(=O)CC=C | broth dilution | MIC90 |  | Clinical Isolate 3055 | 3.13 µg/mL |
| C=C1C[C@@H]2C[C@@H]3CCO[C@@H](O3)c3cccc(c3)/C=C\C[C@H]3O[C@@H](/C(C)=C/I)[C@H](C)[C@@H](OC(=O)/C=C/C[C@@H](C1)O2)[C@H]3C | broth dilution | MIC |  | UCD-FR1 | >64 µg/mL |
| COc1ccc(/C=C2/SC(=O)N(CC(=O)Nc3nc4ccc(SC#N)cc4s3)C2=O)cc1 | broth dilution / visual reading | MIC |  | MTCC 227 | 100 µg/mL |
| CCCCCCCCCCCCC/C=C\C1=N[C@H]1C(=O)OC |  | MIC |  | UCD-FR1 | 8 µg/mL |
| C(/C=C/c1ccccc1)=Nc1ccc(N2CCOCC2)cc1 |  | MIC |  | ATCC 2091 | 28 µg/mL |
| C=C1C[C@@H]2C[C@@H]3CCO[C@@H](O3)c3cccc(c3)/C=C/C[C@H]3O[C@@H](/C(C)=C/I)[C@H](C)[C@@H](OC(=O)/C=C/C[C@@H](C1)O2)[C@H]3C | broth dilution | MIC |  | UCD-FR1 | >64 µg/mL |
| Cc1nc2c(s1)C(=O)C(Sc1ccc3ccccc3c1)=C(O)C2=O |  | MIC |  | ATCC20231 | >100 µg/mL |
| O=c1ccc2c(ccc3nc(N4CCN(Cc5ccccc5)CC4)sc32)o1 |  | MIC100 |  | MTCC 183 | 500 µg/mL |
| CCCCCCCCCCCCC/C=C\C1=NC1C(=O)OC |  | MIC |  | 96-489 | 2–3 µg/mL |
| N=C(N)N(CCCCCCCCCN=C(N)N)CCCCCCCN=C(N)N |  | MIC50 |  | 15T | 10 µM |
| Oc1cccc(C=NNc2ccnc3cc(Cl)ccc23)c1 |  | MFC |  |  | >200 µg/mL |
| CC(C)=CCCNC(N)=NCCCCCCCCCNCCCCCCCN=C(N)N |  | MIC50 |  | 4T | 80 µM |
| CCCCCCCCCCCCCCCC1=N[C@H]1C(=O)OC |  | MIC |  | UCD-FR1 | >64 µg/mL |
| CCNC(CCC(C)C1CC[C@@]2(C)C3=C(CCC12C)C1(C)CC[C@H](O)C(C)(C)C1CC3)C(C)C |  | MIC90 |  | A.10231 | 25 µg/mL |
| Cc1nc(Nc2ccc(C3=NN(c4ccc([N+](=O)[O-])cc4[N+](=O)[O-])C(c4ccc([N+](=O)[O-])cc4)C3)cc2)c2c3c(sc2n1)CCCC3 |  | MIC |  |  | 155 µg/mL |
| CC1=CC[C@@H]2[C@H](C1)C2(C)C |  | MLC |  | D5 | 0.08–0.16 µg/mL |
| N#CSc1ccc2nc(NC(=O)CN3C(=O)S/C(=C/c4ccccc4)C3=O)sc2c1 | broth dilution / visual reading | MIC |  | MTCC 227 | 1000 µg/mL |
| COc1cc(C=Nc2ccc(N3CCOCC3)cc2)ccc1O |  | MIC |  | ATCC 2091 | 20 µg/mL |
| Cn1c(=O)ccc2c3sc(N4CCN(c5cccc(C(F)(F)F)c5)CC4)nc3ccc21 |  | MIC100 |  | MTCC 183 | 62.5 µg/mL |
| NC(N)=NCCCCCCCNCCCCCCCCCNC(N)=NCC1CC1 |  | MIC50 |  | 53T | 10 µM |
| O=[N+]([O-])c1cccc(/C=N/Nc2ccnc3cc(Cl)ccc23)c1 |  | MIC |  |  | >200 µg/mL |
| Clc1ccccc1C=Nc1ccc(N2CCOCC2)cc1 |  | MIC |  | ATCC 2091 | 23 µg/mL |
| Cc1nc(Nc2ccc(C3=NN(c4ccccc4)C(c4ccc(Br)cc4)C3)cc2)c2c3c(sc2n1)CCCC3 |  | MIC |  |  | 105 µg/mL |
| CCN1CCN(c2nc3ccc4c(ccc(=O)n4C)c3s2)CC1 |  | MIC100 |  | MTCC 183 | 250 µg/mL |
| N#Cc1ccccc1/C=N/Nc1ccnc2cc(Cl)ccc12 |  | MFC |  |  | >200 µg/mL |
| CCCCCOc1ccc(-c2ccc(-c3ccc(C(=O)N[C@H]4C[C@@H](O)[C@@H](O)NC(=O)[C@@H]5[C@@H](O)[C@@H](C)CN5C(=O)[C@H]([C@H](C)O)NC(=O)[C@H]([C@H](O)[C@@H](O)c5ccc(O)cc5)NC(=O)[C@@H]5C[C@@H](O)CN5C(=O)[C@H]([C@H](C)O)NC4=O)cc3)cc2)cc1 |  | MIC |  |  | 0.005 µg/mL |